Measured values from several laboratories, pooled; numbers as filed in NIAID ChemDB.

Shared fields: target-level tests; species: HIV-1; protein: Reverse transcriptase

Neighbouring rows are from separate reports. An empty or dashed field is not shown. ICn: concentration for n% inhibition.

structure,mutations,method,strain or isolate,read-out,result
C=C1C(=O)O[C@@H]2C[C@@H]3[C@]4(CC[C@]5(C)[C@@H]([C@H](C)CC/C=C(\C)C=O)CC[C@@]35C)C[C@]4(CCC(=O)O)[C@H]12,-,-,-,IC50,17 µg/mL
NC(=O)[C@H](Nc1ccccc1[N+](=O)[O-])c1c(Cl)cccc1Cl,-,-,-,IC50,67 µM
CCCOC(=O)N1c2ccc([N+](=O)[O-])cc2C=CC1C#N,RT-P236L,nucleotide incorporation,-,IC50,12.6 µM
CCCCCCCCCCCCCCCc1cccc(O)c1C(=O)O,-,RT activity / nucleotide incorporation,-,IC50,>100 µM
C=C1OC(=O)CC[C@]23C[C@]24CC[C@]2(C)[C@@H]([C@H](C)CCC=C(C)C)CC[C@@]2(C)[C@@H]4CC[C@@H]13,-,-,-,IC50,>2.6 µg/mL
CCCCOC(=O)N1c2ccccc2C=CC1C#N,RT-P236L,nucleotide incorporation,-,IC50,4.3 µM
Cc1c(Cc2ccccc2)nc(OC2CCCCC2)[nH]c1=O,-,nucleotide incorporation,-,IC50,2.2 µM
CSc1ncc(C(N)=O)c(Nc2ccc3[nH]ncc3c2)n1,-,ELISA,-,IC50,~0.1 µg/mL
COc1ccc2c(c1)CCN(c1nn3c(C)nnc3c3ccccc13)C2,-,RT activity / fluorescence,IIIB,IC90,7.65 µM
CCCOC(=O)N1c2ccc(OC)cc2C=CC1C#N,RT-P236L,nucleotide incorporation,-,IC50,4.9 µM
Fc1cccc(-c2ccccc2)c1Nc1nc(Cl)nc(NCc2ccc3occc3c2)n1,-,RT activity,-,IC50,100 µM
O=C(/C=C/c1ccc(O)c2c1[C@H](C(=O)O)[C@@H](c1ccc(O)c(O)c1)O2)O[C@H](Cc1ccc(O)c(O)c1)C(=O)O,-,nucleotide incorporation,-,Ki,0.8 µM
CSc1ncc(C(=O)NCCN(C)C)c(Nc2ccc3cn[nH]c3c2)n1,-,ELISA,-,IC50,~0.1 µg/mL
COc1c2c(c(OC)c3occc13)OC=C(C=O)C2O,-,scintillation proximity / radiometric,-,IC50,17.53 µM
CCn1c(=O)c(C)cn([C@@H]2O[C@H](CO[Si](C)(C)C(C)(C)C)C3(OS(=O)(=O)C=C3N)[C@H]2O[Si](C)(C)C(C)(C)C)c1=O,-,-,-,IC50,1.1 µM
CNc1nc(Nc2ccc(C#N)cc2F)nc(Oc2ccc3cccc(Br)c3c2)n1,-,RT activity / fluorescence,-,IC50,0.36 µM
CSc1ncc(C(=O)N(C)C)c(Nc2ccc3cn[nH]c3c2)n1,-,ELISA,-,IC50,~0.1 µg/mL
CCN1C(=O)c2cncnc2N(CC)c2ccccc21,-,nucleotide incorporation / radiometric,IIIB,IC50,≥30 µM
CS(C)=O,-,RT activity / absorbance,-,IC50,>1000 µM
CC(=O)O[C@H]1[C@H](C)[C@@H]([C@H](C)[C@@H](O)[C@@H](C)/C=C/C=C(/C)C(=O)NC2=CC(=O)c3c(c(O)c(C)c4oc(C)cc34)C2=O)OC(CC=O)[C@H]1C,-,ELISA,-,IC50,>300 µM
CC(C)Nc1nc(Nc2ccc(C#N)cc2F)nc(Oc2ccc3cccc(Br)c3c2)n1,-,RT activity / fluorescence,-,IC50,9.49 µM
CC(C)(Nc1nc(Nc2c(F)cccc2-c2ccccc2)[nH]c(=O)n1)c1ccc2c(c1)OCO2,-,RT activity,-,IC50,100 µM
CCNc1nc(Nc2ccc(C#N)cc2F)nc(Oc2ccc3cccc(Br)c3c2)n1,-,RT activity / fluorescence,-,IC50,2.05 µM
Fc1ccc2c(c1)CCN(c1nn3c(C4CC4)nnc3c3ccccc13)C2,-,RT activity / fluorescence,IIIB,IC50,1.28 µM
CCOC(=O)N1c2ccc(OC)cc2C=CC1C#N,RT-P236L,nucleotide incorporation,-,IC50,17.6 µM
CC(C)N1c2ccccc2N(C)C(=O)c2cnc(-c3ccccc3)nc21,-,nucleotide incorporation / radiometric,IIIB,IC50,>30 µM
COC(=O)/C(C)=C\C=C\[C@H](C)[C@@H]1OCO[C@@H]([C@@H](C)[C@H](OC(C)=O)[C@H](C)[C@H](/C=C/O[C@@]2(C)Oc3c(C)c(O)c4c(c3C2=O)C(=O)C=C(N)C4=O)OC)[C@@H]1C,-,ELISA,-,IC50,>300 µM
Nc1nc2c(ncn2[C@H]2CC[C@@H](COP(=O)(O)OP(=O)(O)OP(=O)(O)O)O2)c(=O)[nH]1,-,nucleotide incorporation,-,IC50,0.06 µM
N#Cc1ccc(Nc2nc(N)nc(Oc3ccc4cccc(Cl)c4c3)n2)c(F)c1,-,RT activity / fluorescence,-,IC50,0.709 µM
CCCCCCCCCCCCCc1cccc(O)c1,-,RT activity / RNase H,-,IC50,>200 µM
CCCNc1nc(Nc2ccc(C#N)cc2F)nc(Oc2ccc3cccc(Cl)c3c2)n1,-,RT activity / fluorescence,-,IC50,4.911 µM
O=C(O)C(=O)CC(=O)C1(Cc2ccc(Cl)cc2)CCCN(Cc2ccccc2)C1,-,-,-,IC50,100 µM
COc1cc2c(cc1OC)CN(c1nn3c(C)nnc3c3ccccc13)CC2,-,RT activity / fluorescence,98US_MSC5016,IC90,0.86 µM
COc1cc(O)c2c(=O)cc(-c3cc(O)c(OC)c(O)c3)oc2c1,-,-,-,IC50,>12.1 µg/mL
Cc1cccc(-c2ccccc2)c1Oc1nc(N)nc(NCc2ccc3occc3c2)n1,-,RT activity,-,IC50,100 µM
CCN1c2ccccc2N(C)C(=O)c2cnc(SC)nc21,-,nucleotide incorporation / radiometric,IIIB,IC50,>30 µM
CCCCCCCCCCCCCc1cc(O)cc(O)c1,-,RT activity / nucleotide incorporation,-,IC50,>100 µM
CCNC(=O)c1cnc(SC)nc1Nc1ccc2[nH]ncc2c1,-,ELISA,-,IC50,~0.1 µg/mL
CCc1c(Cc2c(Cl)cccc2Cl)nc(SC/C=C/c2ccc([N+](=O)[O-])cc2)[nH]c1=O,-,nucleotide incorporation / radiometric,-,IC50,25 µM
Cc1c(Cc2ccccc2)nc(OC2CCCC2)[nH]c1=O,-,nucleotide incorporation,-,IC50,4 µM
CCN1c2ccccc2N(C)C(=O)c2cnn(C)c21,-,nucleotide incorporation / radiometric,IIIB,IC50,>30 µM
CC(C)OC(=O)N1c2ccccc2C=CC1C#N,RT-P236L,nucleotide incorporation,-,IC50,1.2 µM
CSc1nc(N)c(C)c(C(=O)c2ccc(F)cc2)n1,-,nucleotide incorporation / radiometric,-,IC50,2.1 µM
c1ccc2c(c1)CCN(c1nn3c(-c4ccsc4)nnc3c3ccccc13)C2,-,RT activity / fluorescence,IIIB,IC50,19.9 µM
CSc1ncc(C(=O)NC2CC2)c(Nc2ccc3cn[nH]c3c2)n1,-,ELISA,-,IC50,~0.1 µg/mL
CC(=O)O[C@@H]([C@H](C)[C@H](O)[C@H](C)[C@@H](O)[C@@H](C)/C=C/C=C(/C)C(=O)NC1=CC(=O)c2c(c(O)c(C)c3oc(C)cc23)C1=O)[C@H](C)/C=C\C=O,-,ELISA,-,IC50,>300 µM
COc1ccc2c(c1)C=CC(C#N)N2C(=O)OCC(C)C,RT-P236L,nucleotide incorporation,-,IC50,4.7 µM
C=CNc1nc(Nc2ccc(C#N)cc2F)nc(Oc2ccc3cccc(Br)c3c2)n1,-,RT activity / fluorescence,-,IC50,1.173 µM
CC(C)N1c2ccccc2N(C)C(=O)c2cnn(-c3ccccc3)c21,-,nucleotide incorporation / radiometric,IIIB,IC50,>30 µM
CCN1c2ncc(CCOc3cccc4c3ccc[n+]4[O-])cc2C(=O)Nc2c(C)cc(Cl)nc21,RT-V106A,nucleotide incorporation / radiometric,-,IC50,0.089 µM
C=C(C)OC(=O)N1c2cc(Cl)ccc2NC(=S)C1(C)C,-,radiometric,LAI,IC50,0.1 µM
CNC(=O)c1cnc(SC)nc1Nc1ccc2cn[nH]c2c1,-,ELISA,-,IC50,~0.1 µg/mL
N#CC1C=Cc2ccccc2N1S(=O)(=O)S(=O)(=O)c1ccccc1,-,nucleotide incorporation,-,IC50,>50 µM

A second listing of 7 rows from above:

structure | mutations | method | strain or isolate | read-out | result
CC(C)Nc1nc(Nc2ccc(C#N)cc2F)nc(Oc2ccc3cccc(Br)c3c2)n1 | - | RT activity / fluorescence | - | IC50 | 9.49 µM
C=CNc1nc(Nc2ccc(C#N)cc2F)nc(Oc2ccc3cccc(Br)c3c2)n1 | - | RT activity / fluorescence | - | IC50 | 1.173 µM
CCCCCCCCCCCCCc1cccc(O)c1 | - | RT activity / RNase H | - | IC50 | >200 µM
CSc1ncc(C(=O)N(C)C)c(Nc2ccc3cn[nH]c3c2)n1 | - | ELISA | - | IC50 | ~0.1 µg/mL
CCOC(=O)N1c2ccc(OC)cc2C=CC1C#N | RT-P236L | nucleotide incorporation | - | IC50 | 17.6 µM
COc1ccc2c(c1)CCN(c1nn3c(C)nnc3c3ccccc13)C2 | - | RT activity / fluorescence | IIIB | IC90 | 7.65 µM
Fc1cccc(-c2ccccc2)c1Nc1nc(Cl)nc(NCc2ccc3occc3c2)n1 | - | RT activity | - | IC50 | 100 µM